This is a selection; strong and weak results do not stand in their true shares.
Assays:
Assay type in all cases: functional
[1] = target: Solute carrier family 2, facilitated glucose transporter member 1 (Homo sapiens) (UniProt P11166); assay: ST_JUDE_LEISH: Cytotoxicity at 2uM final concentration against transgenic Leishmania Mexicana promastigotes LmGLUT1 that are glucose transport deficient and complemented with the human glucose transporter GLUT1. Activity is measured by DNA content using SYBR green in vitro
[2] = target: Hexose transporter 1 (Plasmodium falciparum) (UniProt O97467); assay: ST_JUDE_LEISH: Cytotoxicity at 2uM final concentration against transgenic Leishmania Mexicana promastigotes LmPfHT that are glucose transport deficient and complemented with the Plasmodium falciparum hexose transporter. Activity is measured by DNA content using SYBR green in vitro
[3] = target: Glucose transporter (Leishmania mexicana) (UniProt O61059); assay: ST_JUDE_LEISH: Cytotoxicity at 2uM final concentration against transgenic Leishmania Mexicana promastigotes LmGT2 that are glucose transport deficient and complemented with the L. Mexicana glucose transporter 2. Activity is measured by DNA content using SYBR green in vitro

Protein sequences, listed by entry. Tags and fused reporters are not part of them. Lines headed by an entry give the natural chain unless they say otherwise; changes in a name come on top.
UniProt P11166: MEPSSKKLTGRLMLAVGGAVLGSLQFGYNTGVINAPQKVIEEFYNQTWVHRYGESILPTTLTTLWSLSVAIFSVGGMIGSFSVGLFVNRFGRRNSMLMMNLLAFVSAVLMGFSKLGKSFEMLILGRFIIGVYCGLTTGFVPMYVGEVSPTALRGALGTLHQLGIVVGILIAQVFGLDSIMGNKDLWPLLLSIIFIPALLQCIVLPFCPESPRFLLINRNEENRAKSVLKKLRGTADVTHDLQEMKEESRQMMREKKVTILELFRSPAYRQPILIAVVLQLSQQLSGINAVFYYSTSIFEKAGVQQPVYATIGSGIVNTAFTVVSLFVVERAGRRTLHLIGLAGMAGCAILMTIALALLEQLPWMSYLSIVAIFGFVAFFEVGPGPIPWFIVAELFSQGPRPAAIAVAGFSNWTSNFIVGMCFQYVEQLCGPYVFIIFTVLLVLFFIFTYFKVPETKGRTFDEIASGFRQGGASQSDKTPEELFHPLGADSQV

COc1cc(C(=O)NC(SC2=NCCS2)C(Cl)(Cl)Cl)cc(OC)c1OC (stereo not drawn)
inhibition [1]: -0.59%
inhibition [2]: 1.6%
inhibition [3]: -0.53%
